Source: article PMC10096180, “Half-Sandwich Type Platinum-Group Metal Complexes of C-Glucosaminyl Azines: Synthesis and Antineoplastic and Antimicrobial Activities” (Molecules, 2023)

Key:
Type in all cases: cell-based
Conditions in all cases: Hill slope
[1] = test system: A2780 cells; test: SRB binding assay, cytostasis, 48 h treatment
Experimental: (§1) The complexes described above are intended to replace registered platinum complexes. Platinum complexes constitute the core of the chemotherapy regimen used in ovarian cancer; therefore, we used a cellular model of ovarian cancer, A2780, and primary human dermal fibroblasts as models of non-transformed cells (controls). For the characterization of the complexes, we used an MTT assay after 4 h of treatment for the detection of early toxicity and an SRB assay 48 h after treatment for the detection of cytostasis.
(§2) An SRB assay measures protein content of cells in correlation with the cell number in an assay well and can therefore be used to assess cell proliferation or long-term cytostasis. Cells were seeded in 96-well plates the day before the assay. Cells were treated with the compounds for 48 h. Then medium was removed, and cells were fixed with 10% trichloroacetic acid. Fixed cells were washed in distilled water 3 times, followed by staining with SRB (0.4 m/V% dissolved in 1% acetic acid) for 10 min. Stained cells were washed in 1% acetic acid 5 times; acetic acid was removed, and cells were left to dry. Protein-bound SRB was released by adding 100 μL 10 mM Tris base. Plates were measured in a plate photometer (Thermo Scientific Multiscan GO spectrophotometer, Waltham, MA, USA) at 540 nm. On each plate, wells were designed to contain vehicle-treated cells. In calculations, the readings for these wells were considered to be 1, and all readings were expressed relative to these values.
(§3) Statistical analysis was performed using version 8.0.1 of GraphPad Prism. Values were tested for normal distribution using the Shapiro–Wilk normality test. Nonlinear regression was performed using the built-in “[Inhibitor] vs. response—Variable slope (four parameters), least square fit” utility of GraphPad, which yielded IC50 and Hill slope values if the sigmoid curves reached a plateau of inhibition and there was no decrease between two subsequent data points or when inhibition was over 90%. In other cases, the percentage of inhibition was taken for the maximum concentration (100 μM).

[2] = test system: ID8 cells; test: SRB assay, 48 h
Experimental: (§4) Figure 8 Assessment of free ligand 3a and complex Ru-3a for cytostatic activity in multiple carcinomas. […] Cells were treated with the compounds in the concentrations indicated for 48 h; then, an SRB assay was performed. Data are represented as average ± SD from three biological replicates; individual assays were performed in duplicates. Values were normalized for vehicle-treated cells; absorbance for vehicle-treated cells equals 1. Statistical significance was assessed using a one-way ANOVA test comparing all values to the lowest concentration of a compound. Before the test, normality was assessed using the Shapiro–Wilk test, and the post hoc test was chosen accordingly. […] An SRB assay measures protein content of cells in correlation with the cell number in an assay well and can therefore be used to assess cell proliferation or long-term cytostasis. Cells were seeded in 96-well plates the day before the assay. Cells were treated with the compounds for 48 h. Then medium was removed, and cells were fixed with 10% trichloroacetic acid. […] Stained cells were washed in 1% acetic acid 5 times; acetic acid was removed, and cells were left to dry. Protein-bound SRB was released by adding 100 μL 10 mM Tris base. Plates were measured in a plate photometer (Thermo Scientific Multiscan GO spectrophotometer, Waltham, MA, USA) at 540 nm. On each plate, wells were designed to contain vehicle-treated cells. […] Statistical analysis was performed using version 8.0.1 of GraphPad Prism. Values were tested for normal distribution using the Shapiro–Wilk normality test. […] In other cases, the percentage of inhibition was taken for the maximum concentration (100 μM).

[3] = test system: U251 cells; test: SRB assay, 48 h
Experimental: as §4

[4] = test system: primary human dermal fibroblasts; test: SRB binding assay, cytostasis, 48 h treatment
Experimental: as §1, §2, §3

[5] = test system: A2780 cells; test: MTT reduction assay, early toxicity, 4 h treatment
Experimental: as §1
An MTT reduction assay was measures the activity of mitochondrial complex I and can be used to detect toxicity. The assay was performed in a manner similar to that described in [84]. Briefly, cells were plated in 96-well plates the day before the assay. Cells were treated with the compounds for 4 h; then, MTT was added to a 0.5 mg/mL final concentration, and cells were incubated at 37 °C in a cell incubator for 40–60 min as a function of the cell line being assessed. Culture medium was removed, the reduced MTT dye was dissolved in dimethyl-sulfoxide, and plates were measured in a plate photometer (Thermo Scientific Multiscan GO spectrophotometer, Waltham, MA, USA) at 540 nm. On each plate, wells were designed to contain vehicle-treated cells. In calculations, the readings for these wells were considered to 1, and all readings were expressed relative to these values.
as §3

Compound | A2780 SRB Hill [1] | ID8 SRB Hill [2] | U251 SRB Hill [3] | Fibroblast SRB Hill [4] | A2780 MTT Hill [5]
Cc1ccc(C(C)C)cc1.F[P-](F)(F)(F)(F)F.NC1C(c2cccnn2)OC(COC(=O)c2ccccc2)C(OC(=O)c2ccccc2)C1OC(=O)c1ccccc1.[Cl][Os+] (mixture of isomers) [Os-7b] | 1.26 | – | – | – | –
Cc1c(C)c(C)[c-](C)c1C.F[P-](F)(F)(F)(F)F.NC1C(c2cccnn2)OC(COC(=O)c2ccccc2)C(OC(=O)c2ccccc2)C1OC(=O)c1ccccc1.[Cl][Rh+2] (mixture of isomers) [Rh-7b] | 1.97 | – | – | – | –
Cc1ccc(C(C)C)cc1.F[P-](F)(F)(F)(F)F.NC1C(c2cccnn2)OC(COC(=O)c2ccccc2)C(OC(=O)c2ccccc2)C1OC(=O)c1ccccc1.[Cl][Ru+] (mixture of isomers) [Ru-7b] | 2.57 | – | – | – | –
N[C@@H]1[C@@H](OCc2ccccc2)[C@H](OCc2ccccc2)[C@@H](COCc2ccccc2)O[C@H]1c1ccccn1 [Complex 3a, 2-(2′-Amino-2′-deoxy-3′,4′,6′-tri-O-benzyl-β-D-glucopyranosyl)pyridine] | 1.33 | 2.10 | 1.77 | – | –
Cc1c(C)c(C)[c-](C)c1C.F[P-](F)(F)(F)(F)F.N[C@@H]1[C@@H](OCc2ccccc2)[C@H](OCc2ccccc2)[C@@H](COCc2ccccc2)O[C@H]1c1ccccn1.[Cl][Ir+2] [Ir-3a] | 1.41 | – | – | 2.12 | –
Cc1c(C)c(C)[c-](C)c1C.F[P-](F)(F)(F)(F)F.N[C@@H]1[C@@H](OC(=O)c2ccccc2)[C@H](OC(=O)c2ccccc2)[C@@H](COC(=O)c2ccccc2)O[C@H]1c1ccccn1.[Cl][Ir+2] [Ir-7a] | 1.96 | – | – | – | –
Cc1ccc(C(C)C)cc1.F[P-](F)(F)(F)(F)F.N[C@@H]1[C@@H](OCc2ccccc2)[C@H](OCc2ccccc2)[C@@H](COCc2ccccc2)O[C@H]1c1cnccn1.[Cl][Os+] [Os-3d] | 2.52 | – | – | – | 1.98
Cc1ccc(C(C)C)cc1.F[P-](F)(F)(F)(F)F.N[C@@H]1[C@@H](OC(=O)c2ccccc2)[C@H](OC(=O)c2ccccc2)[C@@H](COC(=O)c2ccccc2)O[C@H]1c1ccccn1.[Cl][Os+] [Os-7a] | 2.26 | – | – | – | –
Cc1c(C)c(C)[c-](C)c1C.F[P-](F)(F)(F)(F)F.N[C@@H]1[C@@H](OCc2ccccc2)[C@H](OCc2ccccc2)[C@@H](COCc2ccccc2)O[C@H]1c1ccccn1.[Cl][Rh+2] [Rh-3a] | 1.11 | – | – | – | –
Cc1c(C)c(C)[c-](C)c1C.F[P-](F)(F)(F)(F)F.N[C@@H]1[C@@H](OC(=O)c2ccccc2)[C@H](OC(=O)c2ccccc2)[C@@H](COC(=O)c2ccccc2)O[C@H]1c1ccccn1.[Cl][Rh+2] [Rh-7a] | 1.88 | – | – | – | –
Cc1ccc(C(C)C)cc1.F[P-](F)(F)(F)(F)F.N[C@@H]1[C@@H](OCc2ccccc2)[C@H](OCc2ccccc2)[C@@H](COCc2ccccc2)O[C@H]1c1ccccn1.[Cl][Ru+] [Ru-3a] | 2.98 | 3.87 | 2.55 | 2.87 | 1.68
Cc1ccc(C(C)C)cc1.F[P-](F)(F)(F)(F)F.N[C@@H]1[C@@H](OCc2ccccc2)[C@H](OCc2ccccc2)[C@@H](COCc2ccccc2)O[C@H]1c1cnccn1.[Cl][Ru+] [Ru-3d] | 2.31 | – | – | – | 2.33
Cc1ccc(C(C)C)cc1.F[P-](F)(F)(F)(F)F.N[C@@H]1[C@@H](OC(=O)c2ccccc2)[C@H](OC(=O)c2ccccc2)[C@@H](COC(=O)c2ccccc2)O[C@H]1c1ccccn1.[Cl][Ru+] [Ru-7a] | 2.46 | – | – | – | 2.54
